These results are taken from US20110064716A1, “MATERIALS AND METHODS FOR TREATING OR PREVENTING ORGANOPHOSPHATE EXPOSURE ASSOCIATED DAMAGE” (published 2011).

The data set relates to FVB/N mice. Conditions: 1.14×LD50 paraoxon, otherwise untreated mice.

Regarding `CCOP(=O)(OCC)Oc1ccc([N+](=O)[O-])cc1`, the time to death was in the range of 5 to 10 min.
